Test system: P. aeruginosa
Assay: Neutropenic thigh infection model (CD-1 mice), exposure response of ceftazidime q2h and avibactam
Format: in vivo, Pseudomonas aeruginosa
Procedure: CD-1 neutropenic mice were infected with appr. 10^6 cfu β-lactamase-producing P. aeruginosa strains in the thigh.
Outbred female CD-1 mice (Charles River, Netherlands), 4 to 5 weeks old, weighing 20 to 25 g were used in the experiments. Granulocytopenia was induced by two doses of cyclophosphamide s.c.: one at four days (150 mg/kg) and the other at one day (100 mg/kg) before the infection experiment.
The neutropenic mice were infected with 2 P. aeruginosa strains per animal, one in the left and one in the right thigh. 0.05 mL of bacterial suspension consisting of approximately 10^5-10^6 bacteria was inoculated intramuscularly. […] All dosing regimens were performed in at least two animals. At t=0 h, 2 mice were humanely sacrificed to determine the initial inoculum just before treatment. All other animals were sacrificed at t=24 h unless the welfare of the animals indicated earlier termination was necessary, following animal welfare regulations. Thighs were taken and moved to a pre-cooled 10-mL plastic tube (Transport Tube, Omnilabo, NL) ? containing 2 mL phosphate buffered saline (PBS; NaCl 8.00 g/L, Na2HPO42H2 1.44 g/L, KH2PO4 0.26 g/L, pH 7.2-7.4). Subsequently thighs were ground using an Ultra-Turrax (IKA Labortechnik, Germany). A tenfold dilution series was prepared and 3×10 μL plated (Chromagar, Biomerieux, NL) per dilution. The following day, colonies were counted and the number of cfu per thigh calculated. The drug effect was then determined as the difference between the log10[cfu/thigh] values at t=24 h and t=0 h (mean value of 2 mice) expressed as “dcfu”.
The amount of avibactam administered varied in frequency and dose. […] The drug effect was determined as the difference between the log10 [cfu/thigh] values at t=24 h and t=0 h (mean value of 2 mice) expressed as dcfu. Free drug concentrations were used in all calculations. […] Oral presentation at the ? 52nd Interscience Conference on Antimicrobial Agents and Chemotherapy, San Francisco, Calif. Abstract #A-1760).

NC(=O)[C@@H]1CC[C@@H]2CN1C(=O)N2OS(=O)(=O)[O-].[Na+] [avibactam, [(2S,5R)-2-carbamoyl-7-oxo-1,6-diazabicyclo[3.2.1]octan-6-yl]hydrogen sulfate]
Emax model Hill slope (strain 1, SE between brackets): ≈′−0.35)
Emax model Hill slope (strain 5, SE between brackets): −1.185 (0.86)
Emax model Hill slope (strain 7, SE between brackets): −1.01 (0.41)
Emax model Hill slope (strain 11, SE between brackets): −1.98 (0.86)
Emax model Hill slope (strain 18, SE between brackets): −2.60 (1.16)
Emax model Hill slope (strain 19, SE between brackets): −5.75 (3.57)

— patent US20150374673A1, “Combination Therapy for the Treatment of Nosocomial Pneumonia” (priority 2013, published 2015)
